The text below walks through data of article PMC7765321, “Novel Isoniazid-Carborane Hybrids Active In Vitro against Mycobacterium tuberculosis” (Pharmaceuticals, 2020).

Where two headings read alike, the source gives them in different places.

The test system of the series is HaCaT cells.

On to “N′-((1,12-dicarba-closo-dodecaboran-1-yl)ethyl)isonicotinohydrazide [Compound 25]”, for which the “cell viability (flow cytometry; lower left quadrant Fig. 7C)” value amounted to 87.45% (24 h at MIC50 for ΔkatG) and 82.20% (24 h at MIC99 for ΔkatG).
